A mixed list of measured activities; the numbers were collected in NIAID ChemDB.

Common to all: tests in culture; agent: Mycobacterium tuberculosis

MIC bound comes from a single tested concentration. ECn is the concentration giving n% inhibition of infection, replication or growth. Percent inhibition refers to the dose given; in toxicity tests it is the harm to the cells. Neighbouring rows are from separate reports. Blank or dashed fields: not listed here. a–b is a range or a potency band. Fold resistance has wild type as its base. MIC50, MIC90 and the like: level of inhibition, or share of isolates inhibited.

smiles,strain,changes,method,measure,tested at,result
COc1ccccc1/C=N\C1=NN2C(=CSC2c2ccc(N(C)C)cc2)S1,H37Rv,,resazurin,MIC,,6.25 µg/mL
FC(F)(F)c1ccc(-n2cc(CNC3c4ccccc4-c4ccccc43)nn2)cc1,Specimen 192,,broth dilution,MIC99,,123.3 µM
O=C(/C=C1\N[C@H]2CCCC[C@H]2N\C1=C/C(=O)c1ccccc1)c1ccccc1,,,,inhibition,6.25 µg/mL,0%
CC(CC(O)(c1cccs1)c1cccs1)N(C)C,H37Rv,,,inhibition,6.25 µg/mL,-1%
NNC(=O)c1ccncc1,90-0233 (isoniazid streptomycin-resistant),,,MIC,,2.5 µg/mL
O=C(Nc1cccc2c1C(=O)c1cccc(NC(=O)c3ccc(C(=O)Nc4cccc5c4C(=O)c4cccc(NC(=O)c6ccccc6)c4C5=O)cc3)c1C2=O)c1ccccc1,H37Rv,,BACTEC,inhibition,12.5 µg/mL,-8%
O=C(NCc1ccccc1C(F)(F)F)c1nnc(-c2ccccn2)[nH]c1=O,H37Rv,,,MIC,,>32 µg/mL
O=c1[nH]c(=O)n(-c2ccc([N+](=O)[O-])cc2)cc1Cl,,,,inhibition,6.25 µg/mL,<90%
Fc1ccccc1-n1cc(CNC2c3ccccc3-c3ccccc32)nn1,Specimen 192,,broth dilution,MIC99,,281 µM
CCc1nc2ccccc2n1CCCCOc1ccc(C)c(C)c1,H37Rv,Rv1339 V90M,turbidity / fluorescence,fold resistance,,0.5
CO[C@H]1/C=C/O[C@@]2(C)Oc3c(C)c(O)c4c(O)c(c5c(c4c3C2=O)NC2(C[C@@H](c3ccccc3)N[C@@H](c3ccccc3)C2)N=5)=NC(=O)/C(C)=C\C=C\[C@H](C)[C@H](O)[C@@H](C)[C@H](O)[C@H](C)[C@H](OC(C)=O)[C@@H]1C,ATCC 35820 (streptomycin-resistant),,,MIC,,0.02 µg/mL
CN(C)C/C=C(/c1ccccc1)c1ccc(-c2ccc(Br)cc2)cc1,ALI 909,,,MIC,,20 µg/mL
CCc1nc2ccc(C)cc2n1CCCNc1ccc(C)cc1C,H37Rv,QcrB M342T,turbidity / fluorescence,fold resistance,,6.2
Cc1[nH]n(-c2cc(S(=O)(=O)O)ccc2Cl)c(=O)c1N=Nc1ccc(C(=O)Nc2ccc(S(=O)(=O)O)cc2)cc1,H37Rv,,BACTEC,MIC bound,,>12.5 µg/mL
Cc1cccc(CNC(=O)c2nnc(-c3ccccn3)[nH]c2=O)c1,H37Rv,,,MIC,,16 µg/mL
CC(=O)NC[C@H]1CN(c2ccc(N3CCOCC3)c(F)c2)C(=O)O1,10 isolates (isoniazid rifampin-resistant),,,MIC50,,0.5 µg/mL
Cc1ncc(CO)c(/C=N/NC(=O)c2ccncc2)c1O,H37Rv,,BACTEC,inhibition,128 µg/mL,99%
COc1cc(OC)c2c(c1)OC(c1ccc(OC)c(I)c1)CC2=O,,,,EC50,,>12.5 µg/mL
C[C@]1(COc2ccc(N3CCN(C/C=C/c4ccccc4OC(F)(F)F)CC3)cc2)Cn2cc([N+](=O)[O-])nc2O1,H37Rv,,,MIC,,0.024 µg/mL
CN(C)CC=C(c1ccc(Br)cc1)c1ccc(-c2ccc(Br)cc2)cc1,ALI 452,,,MIC,,≤4 µg/mL
O=C1C=C(Nc2ccc(Cl)cc2)c2ccccc2C1=O,H37Rv,,resazurin,inhibition,6.25 µg/mL,100%
O=C(/C=C/c1ccccc1)c1cccc2ccccc12,,,,inhibition,12.5 µg/mL,37%
CC1COc2c(N3CCN(C)CC3)c(F)cc3c(=O)c(C(=O)O)cn1c23,90-0145 (DRUG-SUS),,,MIC,,0.5 µg/mL
CN(C)CC=C(c1ccccc1)c1ccc(-c2ccc(Br)cc2)cc1,ALI 544,,,MIC,,10 µg/mL
Clc1ccc(-n2cc(CSC3c4ccccc4-c4ccccc43)nn2)cc1Cl,H37Rv,,broth dilution,MIC99,,>236 µM
C[C@]1(COc2ccc3nc(N4CCC(Cc5ccc(OC(F)(F)F)cc5)CC4)ccc3c2)Cn2cc([N+](=O)[O-])nc2O1,H37Rv,,,MIC,,0.003 µg/mL
Nc1ncccc1/C=C/C(=O)c1cc2ccccc2cc1O,H37Rv,,,EC50,,>12.5 µg/mL
CCc1nc2ccccc2n1CCCNc1ccc(C)c(C)c1,H37Rv,WT,turbidity / fluorescence,MIC90,,3.1 µM
CN(C)c1ccc(C2SC=C3SC(/N=C\c4ccccc4)=NN32)cc1,H37Rv,,resazurin,MIC,,6.25 µg/mL
C[C@]1(COc2ccc3nc(N4CCC(=Cc5ccc(OC(F)(F)F)cc5)CC4)ccc3c2)Cn2cc([N+](=O)[O-])nc2O1,H37Rv,,,MIC,,0.012 µg/mL
CCc1nc2ccccc2n1CCCCOc1ccc(C)c(Cl)c1,H37Rv,WT,turbidity / fluorescence,MIC90,,3.5 µM
NNC(=O)c1cccc(N)c1C(=O)NN,H37Rv,,BACTEC,MIC,,≥12.5 µg/mL
O=C(NCc1ccccc1Br)c1nnc(-c2ccccn2)[nH]c1=O,H37Rv,,,MIC,,>32 µg/mL
Cn1c(=O)ccn(-c2ccc([N+](=O)[O-])cc2)c1=O,,,,inhibition,6.25 µg/mL,<90%
CC(C)(C)C/C(O)=C/c1nc2ccccc2nc1/C=C(\O)CC(C)(C)C,,,,MIC,,>6.25 µg/mL
CC1=NN(c2ccccc2)C(=O)C1N=Nc1ccc(S(=O)(=O)Nc2nnc(C)s2)cc1,KM-R,,,MIC,,6.3 µg/mL
CCc1nc2ccccc2n1CCCCOc1cccc(C)c1,H37Rv,WT,turbidity / fluorescence,MIC90,,0.92 µM
Cn1c(=O)c([N+](=O)[O-])cn(-c2ccc([N+](=O)[O-])cc2)c1=O,,,,inhibition,6.25 µg/mL,<90%
COc1ccccc1/C=N/N=c1\scc(-c2cc3cc(Br)ccc3oc2=O)n1Cc1ccccc1,H37Rv,,,inhibition,6.25 µg/mL,<11%
O=S(=O)(Cc1cn(-c2ccc(C(F)(F)F)cc2)nn1)C1c2ccccc2-c2ccccc21,Specimen 192,,broth dilution,MIC99,,110 µM
CN(C)C/C=C(\c1ccc(O)cc1)c1ccc(-c2ccc(Br)cc2)cc1,H37Rv,,,MIC,,5 µg/mL
O=C1CC(c2ccccc2)Oc2ccc(F)cc21,H37Rv,,,inhibition,12.5 µg/mL,7%
NS(=O)(=O)c1ccc(NC(=S)Nc2ccc(S(=O)(=O)Nc3nccs3)cc2)cc1,H37Rv,,BACTEC,inhibition,0.5 µM,0%
COc1ccc(C2Oc3cc(F)ccc3C(=O)C2OC(C)=O)cc1,,,,inhibition,12.5 µg/mL,50%
O=c1[nH]c(=O)n(-c2ccc([N+](=O)[O-])cc2[N+](=O)[O-])cc1Cl,,,,inhibition,6.25 µg/mL,<90%
C=CCN1[C@@H](c2ccccc2)CC2(C[C@H]1c1ccccc1)N=c1c(c3c4c5c(C)c(O)c3c(O)c1=NC(=O)/C(C)=C\C=C\[C@H](C)[C@H](O)[C@@H](C)[C@H](O)[C@H](C)[C@H](OC(C)=O)[C@H](C)[C@@H](OC)/C=C/O[C@@](C)(O5)C4=O)N2,ATCC 35838 (rifampicin- rifabutin-resistant),,,MIC,,>1 µg/mL
CCc1nc2ccccc2n1CCCCOc1ccccc1Cl,H37Rv,WT,turbidity / fluorescence,MIC90,,7.7 µM
C/C=C/C=N/N(c1nnc(-c2ccccc2)c(-c2ccccc2)n1)S(=O)(=O)c1ccc(C)cc1,H37Rv,,BACTEC,MIC bound,,≤12.5 µg/mL
O=C(NCc1ccc(Cl)c(Cl)c1)c1nnc(-c2ccccn2)[nH]c1=O,H37Rv,,,MIC,,>32 µg/mL
Cn1c2c(c(=O)c3c4[nH]c5c(c(=O)c4ccc31)CCCC5)CCCC2,H37Rv,,BACTEC,inhibition,12.5 µg/mL,18%
Cc1ccc(C2SC=C3SC(N4C(=O)C(Cl)C4c4ccccc4)=NN32)cc1,H37Rv,,resazurin,MIC,,3.125 µg/mL
O=c1oc2ccc(Br)cc2cc1-c1cs/c(=N\N=C\c2ccc(Cl)c(Cl)c2)n1Cc1ccccc1,H37Rv,,,inhibition,6.25 µg/mL,<11%
NCC[C@H](O)C(=O)N[C@@H]1C[C@H](N)[C@@H](O[C@H]2O[C@H](CN)[C@@H](O)[C@H](O)[C@H]2O)[C@H](O)[C@H]1O[C@H]1O[C@H](CO)[C@@H](O)[C@H](N)[C@H]1O,90-0145 (DRUG-SUS),,,MIC,,0.5 µg/mL
CN1C(=O)[C@H]2N(N(C)C1=O)[C@]1(Br)C(=O)N(C)C(=O)[C@]21Br,H37Rv,,BACTEC,MIC,,≥12.8 µg/mL
C[C@]1(COc2ccc(N3CCC(OCc4ccc(OC(F)(F)F)cc4)CC3)cc2)Cn2cc([N+](=O)[O-])nc2O1,H37Rv,,,MIC,,0.003 µg/mL
C/C=C/C/C=C/CCC(=O)[C@H]1O[C@H]1C(N)=O,H37Rv,,,MIC,,5 µg/mL
C=CCN(CC=C)CCN1CCN(CCCN2c3ccccc3Sc3ccc(C(F)(F)F)cc32)CC1.Cl.Cl.Cl,H37Rv,,BACTEC,MIC bound,,≤12.5 µg/mL
COc1ccc(Cc2c(C)c(C#N)c3[nH]c4ccccc4n3c2=O)cc1,H37Rv,,resazurin,MIC90,,0.25 µg/mL
O=C(NCc1cccc([N+](=O)[O-])c1)c1nnc(-c2ccccn2)[nH]c1=O,H37Rv,,,MIC,,>32 µg/mL
O=c1oc2ccccc2cc1-c1cs/c(=N\N=C\c2ccc(Br)cc2)n1Cc1ccccc1,H37Rv,,,MIC,,>6.25 µg/mL
CC1COc2c(N3CCN(C)CC3)c(F)cc3c(=O)c(C(=O)O)cn1c23,5 strains (ofloxacin-susceptible),,,MIC,,0.63–1.25 µg/mL
CO[C@H]1C[C@H](O[C@H]2CC[C@]3(C=O)[C@H]4CC[C@]5(C)[C@@H](C6=CC(=O)OC6)CC[C@]5(O)[C@H]4CC[C@]3(O)C2)O[C@H](C)[C@H]1O,H37Rv,,BACTEC,MIC,,≥128 µg/mL
Cc1c(Cc2cccc(Cl)c2)c(=O)n2c([nH]c3ccccc32)c1C#N,H37Rv,,resazurin,MIC90,,>128 µg/mL
Nc1ccc2c(c1)[nH]c(=O)c1cc(N)ccc12,H37Rv,,BACTEC,inhibition,12.5 µg/mL,-24%
O=c1[nH]c(=O)n(-c2ccc([N+](=O)[O-])cc2[N+](=O)[O-])cc1F,,,,inhibition,6.25 µg/mL,<90%
O=[N+]([O-])c1ccc2nc(/C=C(\O)c3ccccc3)c(/C=C(\O)c3ccccc3)nc2c1,,,,MIC,,>6.25 µg/mL
CN(C)C/C=C(/c1ccc(Br)cc1)c1ccc(-c2ccc(Br)cc2)cc1,ALI 536,,,MIC,,≤4 µg/mL
Cc1cc(C2(c3cc(C)c(O)c(CN(CC(=O)O)CC(=O)O)c3)OS(=O)(=O)c3ccccc32)cc(CN(CC(=O)O)CC(=O)O)c1O,H37Rv,,BACTEC,MIC bound,,>12.5 µg/mL
Cc1ccc(C2SC=C3SC(N4C(=O)C(Cl)C4c4ccccc4C)=NN32)cc1,H37Rv,,resazurin,MIC,,1.6 µg/mL
C=C1C(=O)[C@@]23CC[C@H]4C(C)(CCC[C@@]4(C)C(=O)OC)[C@@H]2CC[C@]1(O)C3,INH-r,,,MIC,,6.3 µg/mL
CCOc1cc(/C=N/N=c2\scc(-c3cc4cc(Br)ccc4oc3=O)n2Cc2ccccc2)ccc1O,H37Rv,,,inhibition,6.25 µg/mL,<11%
O=C1C=C(Nc2nc(O)cc(=O)[nH]2)c2ccccc2C1=O,H37Rv,,,inhibition,6.25 µg/mL,8%
COc1ccc(-c2cc(=O)c3c(OC)cc(OC)c([C@H]4C(=O)c5c(OC)cc(OC)cc5O[C@@H]4c4ccc(OC)cc4)c3o2)cc1,H37Rv,,,EC50,,<12.5 µg/mL
CCOC(=O)c1cccc2c(=O)c3c([nH]c12)C(=O)c1c([nH]c2c(C(=O)OCC)cccc2c1=O)C3=O,H37Rv,,BACTEC,inhibition,12.5 µg/mL,18%
O=S(=O)(Cc1cn(-c2ccc(Br)cc2)nn1)C1c2ccccc2-c2ccccc21,H37Rv,,broth dilution,MIC99,,>214 µM
O=c1[nH][nH]c(=O)c2cnccc12,H37Rv,,BACTEC,inhibition,12.5 µg/mL,0%
COc1ccc([C@@H]2CC3(C[C@H](c4ccc(OC)cc4)N2)N=c2c(c4c5c6c(C)c(O)c4c(O)c2=NC(=O)/C(C)=C\C=C\[C@H](C)[C@H](O)[C@@H](C)[C@H](O)[C@H](C)[C@H](OC(C)=O)[C@H](C)[C@@H](OC)/C=C/O[C@@](C)(O6)C5=O)N3)cc1,ATCC 35820 (streptomycin-resistant),,,MIC,,0.02 µg/mL
Cl.NC1CON(C(c2ccccc2)(c2ccccc2)c2ccccc2)C1=O,H37Rv,,BACTEC,inhibition,12.5 µg/mL,51%
O=c1[nH]c(=O)n(-c2ccc([N+](=O)[O-])cc2)cc1[N+](=O)[O-],,,,inhibition,6.25 µg/mL,<90%

The last 7 rows once more:

{"smiles": "COc1ccc(-c2cc(=O)c3c(OC)cc(OC)c([C@H]4C(=O)c5c(OC)cc(OC)cc5O[C@@H]4c4ccc(OC)cc4)c3o2)cc1", "strain": "H37Rv", "measure": "EC50", "result": "<12.5 µg/mL"}
{"smiles": "CCOC(=O)c1cccc2c(=O)c3c([nH]c12)C(=O)c1c([nH]c2c(C(=O)OCC)cccc2c1=O)C3=O", "strain": "H37Rv", "method": "BACTEC", "measure": "inhibition", "tested at": "12.5 µg/mL", "result": "18%"}
{"smiles": "O=S(=O)(Cc1cn(-c2ccc(Br)cc2)nn1)C1c2ccccc2-c2ccccc21", "strain": "H37Rv", "method": "broth dilution", "measure": "MIC99", "result": ">214 µM"}
{"smiles": "O=c1[nH][nH]c(=O)c2cnccc12", "strain": "H37Rv", "method": "BACTEC", "measure": "inhibition", "tested at": "12.5 µg/mL", "result": "0%"}
{"smiles": "COc1ccc([C@@H]2CC3(C[C@H](c4ccc(OC)cc4)N2)N=c2c(c4c5c6c(C)c(O)c4c(O)c2=NC(=O)/C(C)=C\\C=C\\[C@H](C)[C@H](O)[C@@H](C)[C@H](O)[C@H](C)[C@H](OC(C)=O)[C@H](C)[C@@H](OC)/C=C/O[C@@](C)(O6)C5=O)N3)cc1", "strain": "ATCC 35820 (streptomycin-resistant)", "measure": "MIC", "result": "0.02 µg/mL"}
{"smiles": "Cl.NC1CON(C(c2ccccc2)(c2ccccc2)c2ccccc2)C1=O", "strain": "H37Rv", "method": "BACTEC", "measure": "inhibition", "tested at": "12.5 µg/mL", "result": "51%"}
{"smiles": "O=c1[nH]c(=O)n(-c2ccc([N+](=O)[O-])cc2)cc1[N+](=O)[O-]", "measure": "inhibition", "tested at": "6.25 µg/mL", "result": "<90%"}